The subject of this data set is ChiS DBD (ChiS1024-1129) (Vibrio cholerae). Nature of the data set: EMSA. As to conditions: 0-400 nM protein; recombinant protein; label: Cy5 (Cy5-dCTP by PCR per Methods, 1-2 per probe). Background: Mobility shift assays separate free from complexed probe on a gel.

Experimental findings from article PMC8092284 are described below.

Construct, isoform or probe ends are uncertain for at least one entry.

As for “GGTATTTTGACGTTAATGACGTAGGGCATCTAGGTTTTGACGTTTTTAACGGGAATTGCA (double strand) [Pchb WT 60 bp]”, the binding result is recorded as “binds”.
